Pooled drug test results. Numbers come from NIAID ChemDB, via PubChem.

Shared fields: tests in culture; organism: HIV-1; cell line: CEM; measure: EC50

An empty or dashed field is not shown.

{"structure": "Cc1cn([C@@H]2O[C@H](CO[Si](C)(C)C(C)(C)C)[C@@H](O)[C@H]2O[Si](C)(C)C(C)(C)C)c(=O)n(Cc2nn[nH]n2)c1=O", "strain": "IIIB", "method": "syncytia", "result": ">10 µM"}
{"structure": "NCC(N)C(=O)O", "strain": "IIIB", "result": "1000 µM"}
{"structure": "CCC(C)C(NC(=O)c1ccccc1SSc1ccccc1C(=O)NC(C(=O)O)C(C)CC)C(=O)O", "method": "XTT", "result": "9 µM"}
{"structure": "CCCCCCCC/C=C\\CCCCCCCC(=O)OCC(COC(=O)CCCCCCC/C=C\\CCCCCCCC)OC(=O)CCC(=O)O[C@@H](C[C@@H](Cc1ccccc1)C(=O)N[C@H]1c2ccccc2C[C@H]1OC(=O)CCC(=O)OC(COC(=O)CCCCCCC/C=C\\CCCCCCCC)COC(=O)CCCCCCC/C=C\\CCCCCCCC)CN1CCN(Cc2cccnc2)C[C@H]1C(=O)NC(C)(C)C", "strain": "LAI", "method": "RT activity", "result": ">10 µM"}
{"structure": "CC[C@H](C)[C@H](NC(=O)c1ccccc1SSc1ccccc1C(=O)N[C@H](C(=O)O)[C@@H](C)CC)C(=O)O", "method": "XTT", "result": "5 µM"}
{"structure": "O=C(c1ccccc1)N(CCc1ccccc1)C[C@H](O)CN(CC1CCCC1)S(=O)(=O)CC1CS(=O)(=O)CC1O", "strain": "IIIB", "method": "p24", "result": "<1 µM"}
{"structure": "CCOC[C@H]1CN(C(C)C)C(=O)c2c(O)c(=O)c(-c3nnc(Cc4ccc(F)cc4)s3)cn21", "strain": "IIIB", "method": "XTT", "result": "0.008 µM"}
{"structure": "O=[N+]([O-])c1ccc(/C=C/c2ccc(N=Nc3ccc(/C=C/c4ccc([N+](=O)[O-])cc4S(=O)(=O)O)c(S(=O)(=O)O)c3)cc2S(=O)(=O)O)c(S(=O)(=O)O)c1", "result": "7 µM"}
{"structure": "O=C(NCc1ccc(O)c(O)c1)c1ccc2ccc(C(=O)O)c(O)c2n1", "strain": "NL4-3", "method": "p24", "result": "0.3 µM"}
{"structure": "CCCCCCCCCCCCCCCC(=O)OCC(COC(=O)CCCCCCCCCCCCCCC)OC(=O)CCC(=O)O[C@@H]1Cc2ccccc2[C@@H]1NC(=O)[C@H](Cc1ccccc1)C[C@H](O)CN1CCN(Cc2cccnc2)C[C@H]1C(=O)NC(C)(C)C", "strain": "LAI", "method": "RT activity", "result": "2.6 µM"}
{"structure": "NC(=O)[C@@H](N)Cc1c[nH]c2ccccc12", "strain": "IIIB", "result": "200 µM"}
{"structure": "O=C(Nc1ccc([N+](=O)[O-])cc1)c1ccccc1SSc1ccccc1C(=O)Nc1ccc([N+](=O)[O-])cc1", "method": "XTT", "result": "4 µM"}
{"structure": "COc1ccc(S(=O)(=O)N(CC(C)C)C[C@@H](O)CCN(CC2CCCC2)S(=O)(=O)C2CCCOC2)cc1", "strain": "IIIB", "method": "p24", "result": "<1 µM"}
{"structure": "CCCNc1nc(N)nc2c1ncn2[C@H]1C=C[C@@H](CO)C1", "result": "6 µM"}
{"structure": "Cc1c(OC(=O)CCCCOc2ccc(C[C@H](NC(=O)OC(C)(C)C)C(=O)O)cc2)cccc1C(=O)N[C@@H](CSc1ccccc1)[C@H](O)CN1C[C@H]2CCCC[C@H]2C[C@H]1C(=O)NC(C)(C)C", "strain": "LAI", "method": "RT activity", "result": "0.029 µM"}
{"structure": "COc1cc(Cc2cnc(/N=C3\\C(=O)N(CN4CCN(c5cccc(Cl)c5)CC4)c4ccc(F)cc43)nc2N)cc(OC)c1OC", "method": "cytopathic effect / XTT", "result": ">104 µg/mL"}
{"structure": "CC(C)C[C@H](NC(=O)OC(C)(C)C)C(=O)O[C@@H]1Cc2ccccc2[C@@H]1NC(=O)[C@H](Cc1ccccc1)C[C@H](O)CN1CCN(Cc2cccnc2)C[C@H]1C(=O)NC(C)(C)C", "strain": "LAI", "method": "RT activity", "result": "0.685 µM"}
{"structure": "Cc1cn([C@@H]2O[C@H](CO[Si](C)(C)C(C)(C)C)[C@@H](O)[C@H]2O[Si](C)(C)C(C)(C)C)c(=O)n(CCCCC(=O)O)c1=O", "strain": "IIIB", "method": "syncytia", "result": "≥10 µM"}
{"structure": "O=C(NCCO)c1ccccc1SSc1ccccc1C(=O)NCCO", "method": "XTT", "result": "4.5 µM"}
{"structure": "Nc1ccc2cc(S(=O)(=O)O)cc(O)c2c1N=Nc1ccc(NC(=O)c2ccc(C(=O)Nc3ccc(N=Nc4c(N)ccc5cc(S(=O)(=O)O)cc(O)c45)c(S(=O)(=O)O)c3)cc2)cc1S(=O)(=O)O", "result": "4 µM"}
{"structure": "CCn1cc(C(=O)O)c(=O)c2cc(F)c(N3CCN(CN4C(=O)/C(=N\\c5ncc(Cc6cc(OC)c(OC)c(OC)c6)c(N)n5)c5cc(F)ccc54)CC3)cc21", "method": "cytopathic effect / XTT", "result": "50.8 µg/mL"}
{"structure": "Cc1cc(C)c(CS(=O)c2cccc[n+]2[O-])c(C)c1", "strain": "MN", "method": "syncytia", "result": "7.6 µg/mL"}
{"structure": "CC(C)(C)[Si](C)(C)OC[C@@H]1CC[C@H](n2cnc3c(=O)n(CC(=O)O)cnc32)O1", "strain": "IIIB", "method": "syncytia", "result": ">200 µM"}
{"structure": "C[C@@H](N)C(=O)N1CCC[C@H]1C(=O)NCC(=O)N[C@@H](Cc1c[nH]c2ccccc12)C(N)=O", "strain": "IIIB", "result": "500 µM"}
{"structure": "COC(=O)Cn1c(=O)c(C)cn([C@@H]2O[C@H](CO[Si](C)(C)C(C)(C)C)[C@@H](O)[C@H]2O[Si](C)(C)C(C)(C)C)c1=O", "strain": "IIIB", "method": "syncytia", "result": ">10 µM"}
{"structure": "Nc1c(S(=O)(=O)O)cc(S(=O)(=O)O)c2ccc(N=Nc3ccc(/C=C/c4ccc(N=Nc5ccc6c(S(=O)(=O)O)cc(S(=O)(=O)O)c(N)c6c5O)cc4S(=O)(=O)O)c(S(=O)(=O)O)c3)c(O)c12", "result": "20 µM"}
{"structure": "Cc1ccc(C)c(CS(=O)c2ccc(Cl)c[n+]2[O-])c1", "strain": "IIIB", "method": "syncytia", "result": "2 µg/mL"}
{"structure": "Nc1ccc(S(=O)(=O)N(CC[C@H](O)CN(CC2CCCC2)S(=O)(=O)c2ccc(N)cc2)CC2CCCC2)cc1", "strain": "IIIB", "method": "p24", "result": "<1 µM"}
{"structure": "COC(=O)CCCCn1c(=O)c(C)cn([C@@H]2O[C@H](CO[Si](C)(C)C(C)(C)C)[C@@H](O)[C@H]2O[Si](C)(C)C(C)(C)C)c1=O", "strain": "IIIB", "method": "syncytia", "result": ">10 µM"}
{"structure": "Cc1c(O)cccc1C(=O)N[C@@H](CSc1ccccc1)[C@@H](CN1C[C@H]2CCCC[C@H]2C[C@H]1C(=O)NC(C)(C)C)OC(=O)CCCCOc1ccc(C[C@H](NC(=O)OC(C)(C)C)C(=O)O)cc1", "strain": "LAI", "method": "RT activity", "result": "0.54 µM"}
{"structure": "COC(=O)Cn1c(=O)c(C)cn([C@H]2C=C[C@@H](CO[Si](C)(C)C(C)(C)C)O2)c1=O", "strain": "IIIB", "method": "syncytia", "result": ">10 µM"}
{"structure": "Cc1cc(-c2ccc(N=Nc3ccc4c(S(=O)(=O)O)cc(S(=O)(=O)O)c(N)c4c3O)c(C)c2)ccc1N=Nc1ccc2c(S(=O)(=O)O)cc(S(=O)(=O)O)c(N)c2c1O", "result": "7 µM"}
{"structure": "COc1ccc(S(=O)(=O)N(CC[C@@H](O)CN2CCCC[C@H]2C(=O)NC(C)(C)C)CC(C)C)cc1", "strain": "IIIB", "method": "p24", "result": "<1 µM"}
{"structure": "NC(=O)[C@@H](N)Cc1ccccc1", "strain": "IIIB", "result": "500 µM"}
{"structure": "COC(=O)CC(OP(=O)(OC[C@@H]1C=C[C@H](n2cc(C)c(=O)[nH]c2=O)O1)OC(CC(=O)OC)c1ccc(OC(C)=O)cc1)c1ccc(OC(C)=O)cc1", "result": "0.25 µM"}
{"structure": "COc1ccc(S(=O)(=O)N(CC2CCCC2)C(=O)C(=O)C(=O)[C@@H](Cc2ccccc2)NC(=O)O[C@H]2CCOC2)cc1", "strain": "IIIB", "method": "p24", "result": "<1 µM"}
{"structure": "COc1cc(Cc2cnc(/N=C3\\C(=O)N(CN4CCN(c5cccc(C(F)(F)F)c5)CC4)c4ccc(F)cc43)nc2N)cc(OC)c1OC", "method": "cytopathic effect / XTT", "result": ">127 µg/mL"}
{"structure": "Cn1cc(C(=O)O)c(=O)c2cc(F)c(N3CC=C(c4ccccc4)CC3)c(C(F)(F)F)c21", "method": "ELISA", "result": "0.11 µM"}
{"structure": "CC(C)CN(C[C@@H](O)CN(CCc1ccccc1)C(=O)O[C@H]1CCOC1)S(=O)(=O)c1cccc(N)c1", "strain": "IIIB", "method": "p24", "result": "<0.1 µM"}
{"structure": "CC(=O)Oc1ccc(COP(=O)(OCc2ccc(OC(C)=O)cc2)OC[C@@H]2C=C[C@H](n3cc(C)c(=O)[nH]c3=O)O2)cc1", "result": "0.17 µM"}
{"structure": "COc1cc(Cc2cnc(/N=C3\\C(=O)N(CN4CCN(Cc5ccccc5)CC4)c4ccc(F)cc43)nc2N)cc(OC)c1OC", "method": "cytopathic effect / XTT", "result": ">112 µg/mL"}

Repeating the final 5 entries:

| structure | strain | method | result |
|---|---|---|---|
| COc1cc(Cc2cnc(/N=C3\C(=O)N(CN4CCN(c5cccc(C(F)(F)F)c5)CC4)c4ccc(F)cc43)nc2N)cc(OC)c1OC |  | cytopathic effect / XTT | >127 µg/mL |
| Cn1cc(C(=O)O)c(=O)c2cc(F)c(N3CC=C(c4ccccc4)CC3)c(C(F)(F)F)c21 |  | ELISA | 0.11 µM |
| CC(C)CN(C[C@@H](O)CN(CCc1ccccc1)C(=O)O[C@H]1CCOC1)S(=O)(=O)c1cccc(N)c1 | IIIB | p24 | <0.1 µM |
| CC(=O)Oc1ccc(COP(=O)(OCc2ccc(OC(C)=O)cc2)OC[C@@H]2C=C[C@H](n3cc(C)c(=O)[nH]c3=O)O2)cc1 |  |  | 0.17 µM |
| COc1cc(Cc2cnc(/N=C3\C(=O)N(CN4CCN(Cc5ccccc5)CC4)c4ccc(F)cc43)nc2N)cc(OC)c1OC |  | cytopathic effect / XTT | >112 µg/mL |

Conditions beyond the fields shown may differ between rows. ECn: concentration that inhibits the pathogen or its effect by n%.